# Data as given in article PMC6358683.
# How the values were obtained:
# [1] = target: HA of A/Puerto Rico/8/1934 (influenza A virus A/Puerto Rico/8/1934) (UniProt P03452)
# [2] = target: HA of A/Puerto Rico/8/1934 (influenza A virus A/Puerto Rico/8/1934) (UniProt P03452); test: BLI
substance,measurement,setting,value
C05 V110P (antibody),"HAI, antibody concentration at the endpoint titer; virus A/Puerto Rico/8/1934",[1],> 100 µg/mL
same,Kd,[2],42 µM
same,koff,[2],0.51 s⁻¹
same,kon,[2],12000 M⁻¹ s⁻¹
